A mixed list of measured activities; the numbers were collected in NIAID ChemDB.

All rows: tests in culture; agent: Candida krusei

ECn: concentration that inhibits the pathogen or its effect by n%. An empty or dashed field is not shown. Percent inhibition refers to the dose given; in toxicity tests it is the harm to the cells. Rows are shuffled and stem from different studies. MIC50, MIC90 and the like: level of inhibition, or share of isolates inhibited.

compound,strain or isolate,read by,measure,tested at,result
CN[C@H]1CC[C@@H](c2ccc(Cl)c(Cl)c2)c2ccccc21,DUMC132.91,broth dilution,MFC,-,16 µg/mL
CC(NC(=O)C(N)Cc1ccccc1)C(=O)NC(Cc1ccc(O)cc1)C(=O)O,ATCC 6258,broth dilution,MFC,-,696 µg/mL
CC(C)(O)c1cn(-c2ccc3ccccc3c2)nn1,URM 934,broth dilution,inhibition,2048 µg/mL,0%
CC1CC(=O)N(CCCc2ccccc2)C1=O,CCC 117-2000,broth dilution / turbidity,MIC,-,125 µg/mL
c1ccc(C(c2ccccc2)n2ccnc2)cc1,-,agar,MIC90,-,0.5 µg/mL
O=C(O)O,ATCC 6258,broth dilution,MIC50,-,100 µg/mL
CC1CC(=O)N(c2ccc(Cl)cc2)C1=O,CCC 117-2000,broth dilution / turbidity,MIC,-,125 µg/mL
C[C@H]1[C@H](O)[C@@H](C)/C=C/C=C/C=C/C=C/C=C/C=C/C=C/[C@H](O[C@@H]2O[C@H](C)[C@@H](O)[C@H](N)[C@@H]2O)C[C@@H]2O[C@](O)(C[C@@H](O)C[C@@H](O)CC[C@H](O)[C@@H](O)C[C@@H](O)CC(=O)O[C@H]1C)C[C@H](O)[C@H]2C(=O)O,ATCC 6258,broth dilution / absorbance,MIC99,-,0.78 µM
COc1cc(/C=N/NC(=O)c2ccc(NC(C)=O)cc2)ccc1O,ATCC 6258,broth dilution,EC50,-,120 µM
O=C(c1ccccc1)C(c1ccccc1)n1ccnc1,-,broth dilution,MFC,-,>256 µg/mL
C[C@@H](N1CCN(Cc2cn(Cc3ccc(F)cc3F)c3ccc(C#N)cc23)CC1)[C@](O)(Cn1cncn1)c1ccc(F)cc1F,ATCC 6258,resazurin,MIC80,-,0.25 µg/mL
C=CCc1ccc(O)c(OC)c1,139,turbidity,MIC90,-,500 µg/mL
COc1cc(C=O)cc(OC)c1OCC(O)(Cn1cncn1)c1ccc(F)cc1F,ATCC 6258,broth dilution,MIC50,-,128 µg/mL
CCCCCCCCCCCCCCn1cc[n+](COCCCCOC[n+]2ccn(CCCCCCCCCCCCCC)c2)c1,ATCC 6258,agar diffusion,MIC100,-,28 µM
Cc1ccc(-c2c3c(N)c4c(nc3nc3c2c(C)nn3-c2ccccc2)CCCCC4)cc1,CCC 117,broth dilution / absorbance,MIC100,-,125 µg/mL
NN(Cc1ccccc1)CC(O)(Cn1cncn1)c1ccc(F)cc1F,ATCC 6528,-,MIC80,-,0.5 µg/mL
C[C@@H](N1CCN(Cc2c[nH]c3ccccc23)CC1)[C@](O)(Cn1cncn1)c1ccc(F)cc1F,ATCC 6258,resazurin,MIC80,-,16 µg/mL
COc1cc(NC(C)CCCNC(=O)CCC(NC(=O)[C@H](N)CCCCN)C(=O)O)c2nc(C(C)(C)C)ccc2c1,-,broth dilution,EC50,-,>20 µg/mL
Clc1ccc(C(c2ccccc2)N2CCN(CCn3cncn3)CC2)cc1,-,agar,MIC90,-,>256 µg/mL
Cc1ccc(N2C(=O)C[C@@H](C)C2=O)cc1,CCC 117-2000,broth dilution / turbidity,MIC,-,62.5 µg/mL
Cc1ccc(-c2c3c(N)c4c(nc3nc3c2c(C)nn3-c2ccccc2)CCC4)cc1,CCC 117,broth dilution / absorbance,MIC80,-,125 µg/mL
O=c1cc(CO)occ1O,ATCC 6258,-,MIC99,-,>12800 µM
CCCCCCCn1cc[n+](COCCCCCOC[n+]2ccn(CCCCCCC)c2)c1,ATCC 6258,agar diffusion,MIC100,-,75 µM
NC(=O)c1cc[n+](CCCC[n+]2ccccc2/C=N/O)cc1.[Br-].[Br-],-,broth dilution,EC50,-,>20 µg/mL
C[C@@H](N1CCN(Cc2cn(Cc3ccc(F)cc3F)c3ccccc23)CC1)[C@](O)(Cn1cncn1)c1ccc(F)cc1F,ATCC 6258,resazurin,MIC80,-,0.5 µg/mL
CCC(C)CC(C)CCCCCCCCC(=O)N[C@H]1C[C@@H](O)[C@H](NCCN)NC(=O)[C@@H]2[C@@H](O)CCN2C(=O)[C@H]([C@H](O)CCN)NC(=O)[C@H]([C@H](O)[C@@H](O)c2ccc(O)cc2)NC(=O)[C@@H]2C[C@@H](O)CN2C(=O)[C@H]([C@@H](C)O)NC1=O,ATCC 27393,broth dilution,MIC50,-,0.25 µg/mL
C[C@H]1[C@H](O)[C@@H](C)/C=C/C=C/C=C/C=C/C=C/C=C/C=C/[C@H](O[C@@H]2O[C@H](C)[C@@H](O)[C@H](N)[C@@H]2O)C[C@@H]2O[C@](O)(C[C@@H](O)C[C@@H](O)CC[C@H](O)[C@@H](O)C[C@@H](O)CC(=O)O[C@H]1C)C[C@H](O)[C@H]2C(=O)O,Clinical isolate,visual reading,MFC,-,2 µg/mL
CCCCCCCCCn1cc[n+](COCCCCCOC[n+]2ccn(CCCCCCCCC)c2)c1,ATCC 6258,agar diffusion,MIC100,-,85 µM
O=C1c2ccccc2CC1Cn1ccnc1,RTCC 1090,broth dilution,MIC,-,>64 µg/mL
CC(C)(O)c1cn(-c2ccc([N+](=O)[O-])cc2)nn1,URM 4802,broth dilution,inhibition,2048 µg/mL,0%
C[C@@H](N1CCN(Cc2cn(Cc3ccc(Cl)cc3Cl)c3ccccc23)CC1)[C@](O)(Cn1cncn1)c1ccc(F)cc1F,ATCC 6258,resazurin,MIC80,-,1 µg/mL
O/N=C/c1cccc[n+]1Cc1csc2ccccc12.[Cl-],-,broth dilution,EC50,-,>20 µg/mL
CCCCCCCCn1cc[n+](COCCCCOC[n+]2ccn(CCCCCCCC)c2)c1,ATCC 6258,agar diffusion,MIC100,-,9 µM
CCOc1ccc2nc3cc(N=C4NC(=O)/C(=C\c5ccc([N+](=O)[O-])o5)S4)ccc3c(N)c2c1,-,broth dilution,MFC,-,250 µg/mL
Clc1ccc(C(c2ccccc2)n2nnc3ccccc32)cc1,-,agar,MIC90,-,>256 µg/mL
C[C@H]1[C@H](O)[C@@H](C)/C=C/C=C/C=C/C=C/C=C/C=C/C=C/[C@H](O[C@@H]2O[C@H](C)[C@@H](O)[C@H](N)[C@@H]2O)C[C@@H]2O[C@](O)(C[C@@H](O)C[C@@H](O)CC[C@H](O)[C@@H](O)C[C@@H](O)CC(=O)O[C@H]1C)C[C@H](O)[C@H]2C(=O)O,-,broth dilution,MIC100,-,5 µg/mL
CC1(O)OC(=O)C(c2ccc(OCC(O)(Cn3cncn3)c3ccc(F)cc3F)cc2)=C1c1ccc(F)cc1F,ATCC 6258,broth dilution,MIC50,-,16 µg/mL
CC(C)CC(O)C(=O)O,ATCC 6258,broth dilution,EC50,-,36000 µg/mL
O/N=C/c1cc[n+](Cc2ccc(C[n+]3ccc(/C=N/O)cc3)s2)cc1.[Cl-].[Cl-],-,broth dilution,EC50,-,>20 µg/mL
Cc1ccc(C(O)c2cccc(C(=O)CCn3ccnc3)c2)cc1,RTCC 1001,broth dilution,MIC,-,>64 µg/mL
Cc1ccc(-c2c3c(N)c4c(nc3nc3c2c(C)nn3-c2ccccc2)CCCC4)cc1,CCC 117,broth dilution / absorbance,MIC50,-,7.8 µg/mL
COc1ccc(C(c2ccc(OC)cc2)n2ccnc2)cc1,-,broth dilution,MFC,-,>256 µg/mL
Cc1ccccc1N1C(=O)CC(C)C1=O,CCC 117-2000,broth dilution / turbidity,MIC,-,125 µg/mL
O=C(O[C@@H]1COC(=O)c2cc(O)c(O)c(O)c2-c2c(cc(O)c(O)c2O)C(=O)OC1C1OC(=O)c2cc(O)c(O)c(O)c2-c2c(O)c(O)c(O)c3c2C(=O)OC1[C@H]3O)c1cc(O)c(O)c(O)c1,ATCC 6258,broth dilution,MIC100,-,580 µg/mL
CC(C)(O)c1cn(-c2cccc3ccccc23)nn1,URM 1059,broth dilution,inhibition,2048 µg/mL,0%
OC(CCn1ccnc1)c1ccc(-c2ccccc2)cc1,RTCC 1001,broth dilution,MIC,-,>64 µg/mL
C/C(C=NCCN=C/C(C)=C\c1ccccc1)=C/c1ccccc1,ATCC 6258,agar diffusion,MIC90,-,190 µM
O=C1O/C(=C\c2ccc(OCC(O)(Cn3cncn3)c3ccc(F)cc3F)cc2)C(c2ccc(F)cc2F)=C1c1ccc(Cl)cc1,ATCC 6258,broth dilution,MIC50,-,4 µg/mL
CCCCCCCn1cc[n+](COCCOC[n+]2ccn(CCCCCCC)c2)c1,ATCC 6258,agar diffusion,MIC100,-,20 µM
Cc1ccc(C2=C(c3ccc(OCC(O)(Cn4cncn4)c4ccc(F)cc4F)cc3)C(=O)OC2)cc1,ATCC 6258,broth dilution,MIC50,-,4 µg/mL
C=CCn1cc(CN2CCN([C@H](C)[C@](O)(Cn3cncn3)c3ccc(F)cc3F)CC2)c2ccc(Cl)cc21,ATCC 6258,resazurin,MIC80,-,0.5 µg/mL
CC(C)(O)c1cn(-c2cccc([N+](=O)[O-])c2)nn1,URM 4263,broth dilution,inhibition,2048 µg/mL,0%
C[C@@H](N1CCN(Cc2cn(-c3ccc(F)cc3)c3cc(Cl)ccc23)CC1)[C@](O)(Cn1cncn1)c1ccc(F)cc1F,ATCC 6258,resazurin,MIC80,-,0.5 µg/mL
O/N=C/c1cc[n+](Cc2cc(C[n+]3ccc(/C=N/O)cc3)on2)cc1.[Br-].[Br-],-,broth dilution,EC50,-,>20 µg/mL
C[C@@H]1C(=O)N(c2ccccc2)C(=O)[C@@H]1C,CCC 117-2000,broth dilution / turbidity,MIC,-,62.5 µg/mL

The last 8 rows once more:

compound,strain or isolate,read by,measure,tested at,result
O=C1O/C(=C\c2ccc(OCC(O)(Cn3cncn3)c3ccc(F)cc3F)cc2)C(c2ccc(F)cc2F)=C1c1ccc(Cl)cc1,ATCC 6258,broth dilution,MIC50,-,4 µg/mL
CCCCCCCn1cc[n+](COCCOC[n+]2ccn(CCCCCCC)c2)c1,ATCC 6258,agar diffusion,MIC100,-,20 µM
Cc1ccc(C2=C(c3ccc(OCC(O)(Cn4cncn4)c4ccc(F)cc4F)cc3)C(=O)OC2)cc1,ATCC 6258,broth dilution,MIC50,-,4 µg/mL
C=CCn1cc(CN2CCN([C@H](C)[C@](O)(Cn3cncn3)c3ccc(F)cc3F)CC2)c2ccc(Cl)cc21,ATCC 6258,resazurin,MIC80,-,0.5 µg/mL
CC(C)(O)c1cn(-c2cccc([N+](=O)[O-])c2)nn1,URM 4263,broth dilution,inhibition,2048 µg/mL,0%
C[C@@H](N1CCN(Cc2cn(-c3ccc(F)cc3)c3cc(Cl)ccc23)CC1)[C@](O)(Cn1cncn1)c1ccc(F)cc1F,ATCC 6258,resazurin,MIC80,-,0.5 µg/mL
O/N=C/c1cc[n+](Cc2cc(C[n+]3ccc(/C=N/O)cc3)on2)cc1.[Br-].[Br-],-,broth dilution,EC50,-,>20 µg/mL
C[C@@H]1C(=O)N(c2ccccc2)C(=O)[C@@H]1C,CCC 117-2000,broth dilution / turbidity,MIC,-,62.5 µg/mL